Assay results from PubChem BioAssay AID540336 (Broad Institute, 2011).
This is a selection; strong and weak results do not stand in their true shares. Active and inactive are the calls of the source.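 Rule for the calls: active = inhibition of at least 50% in every replicate; inconclusive = best replicate reaches 50% inhibition but some replicates fall short; inactive = the rest.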

Chains of the proteins cited; added tags and fusions are not shown.
UniProt Q5AAJ8, whole entry, looked up: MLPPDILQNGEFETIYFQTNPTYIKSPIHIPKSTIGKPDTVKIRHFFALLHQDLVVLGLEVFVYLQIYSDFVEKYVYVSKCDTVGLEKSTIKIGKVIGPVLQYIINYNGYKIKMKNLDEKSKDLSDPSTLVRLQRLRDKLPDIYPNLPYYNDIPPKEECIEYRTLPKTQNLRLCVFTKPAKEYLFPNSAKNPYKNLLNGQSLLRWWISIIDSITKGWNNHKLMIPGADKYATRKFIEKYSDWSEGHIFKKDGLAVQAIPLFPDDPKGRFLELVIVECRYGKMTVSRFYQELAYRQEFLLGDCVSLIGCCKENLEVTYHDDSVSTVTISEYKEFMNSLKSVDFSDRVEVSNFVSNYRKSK

What follows are molecules tested against Histone acetyltransferase RTT109 (Candida albicans (strain SC5314 / ATCC MYA-2876)) (UniProt Q5AAJ8) (assay: inhibitors of C. albicans Rtt109/Vps75 HAT, primary screen, biochemical, ThioGlo CoA-SH fluorescence, plate reader (AID 540336)). Conditions: purified Rtt109/Vps75, ThioGlo CoA-SH fluorescence, 4 h; at 34.9 µM; hits give high values.

SMILES | inhibition
Cc1c2c(nc3ccccc13)SC(C(Cl)Cl)C2 (configuration not stated) | inactive: 9.04%
O=C(OC1CN2CCC1CC2)c1cccc2[nH]cnc12 (configuration not stated) | inactive: 3.52%
CCN(CC)C(=S)SC(NC=O)C(Cl)(Cl)Cl (configuration not stated) | inactive: -3.67%
CC(C)NC(=O)NP(=O)(Oc1ccccc1)Oc1ccccc1 | inactive: 19.8%
CC(C)c1ccc(OP(=O)(Nc2ccccn2)Oc2ccccc2F)cc1 (configuration not stated) | inactive: 4.28%
COC(=O)C1(C)COP(=O)(N2CCCCCC2)OC1 (configuration not stated) | inactive: -3.33%
ClCCSc1nnc(-c2cccnc2)o1 | inactive: -10.7%
Cc1ccc2nc3c(c(C)c2c1)CC(C(Cl)Cl)S3 (configuration not stated) | inactive: -15.6%
Cc1ccc(OP(=O)(Nc2ccc([N+](=O)[O-])cn2)Oc2ccc(C)cc2)cc1 | inactive: 4.62%
COc1cc(C(=O)NCC2(N3CCOCC3)CCCCC2)ccc1OCC(C)C | inactive: -6.75%
O=[N+]([O-])c1ccc(-c2cc([N+](=O)[O-])c(O)c([N+](=O)[O-])c2)cc1 | inactive: 6.65%
O=[As](O)(c1ccc(O)cc1)c1ccccc1O | inactive: -4.01%
C[As](=O)(O)c1cccc(C(=O)O)c1 | inactive: -2.41%
O=[N+]([O-])c1ccc(Nc2ccc(Oc3ccc([N+](=O)[O-])cc3[N+](=O)[O-])cc2)c([N+](=O)[O-])c1 | inactive: 2.23%
Cc1cc(SC(NC=O)C(Cl)(Cl)Cl)ncn1 (configuration not stated) | inactive: 17.7%
O=P(Nc1ccccn1)(c1cccc2ccccc12)c1cccc2ccccc12 | inactive: 30%
CCOC(=O)Nc1cccc([As](=O)(O)O)c1 | inactive: -5.5%
Cc1cc(SC(NC(=O)c2ccccc2)C(Cl)(Cl)Cl)nc(C(C)C)n1 (configuration not stated) | inactive: -9.72%
CCCCOc1ccc(C(=O)NCC2(N3CCCCC3)CCCCC2)cc1OC | inactive: 3.67%
CC1CCNP(=O)(N(CCCl)CCCl)O1 (configuration not stated) | inactive: -4.06%
CCOC(=O)Nc1ccc([As](=O)(O)O)c(O)c1 | inactive: -4.37%
CCC(C)N(CC(C)C)C(=S)SC(NC(C)=O)C(Cl)(Cl)Cl (configuration not stated) | inactive: -7.73%
CCOC(=O)c1ccc(NC(=O)C(C)(CCl)SC)cc1 (configuration not stated) | inactive: -10.7%
O=C(OC1CN2CCC1CC2)c1cccc([N+](=O)[O-])c1 (configuration not stated) | inactive: 2.87%
O=C(Nc1ccncc1[N+](=O)[O-])c1ccc([N+](=O)[O-])cc1[N+](=O)[O-] | inactive: -15.6%
O=C(COc1ccccc1)OC1CN2CCC1CC2 (configuration not stated) | inactive: -0.54%
COP1(=S)c2c(C)nn(CCC#N)c2N=C(c2ccc(F)cc2)N1C (configuration not stated) | inactive: 8.77%
